# According to US10647671B2, “Promysalin analogues and methods of use thereof” (Temple University—Of The Commonwealth System of Higher …, priority 2016, dated 2020):
# System: succinate dehydrogenase C-subunit (SdhC)
# Assay: Affinity/activity-based protein profiling (ABPP)
# Conditions: probe 3 μM
Compound,competition of probe enrichment of SdhC (promysalin 30 μM pre-incubation),"most prominent enriched protein (ABPP) (PAO1 and PA14, versus inactive probe)"
"CCCCCC[C@H](CCCCC[C@@H](O)C(N)=O)OC(=O)[C@@H]1CC=CN1C(=O)c1ccccc1O [1 (2R,8R), promysalin]",outcompeted,
"C#CCCC1(CCNC(=O)[C@H](O)CCCCC[C@@H](CCCCCC)OC(=O)[C@@H]2CC=CN2C(=O)c2ccccc2O)N=N1 [(−)-2, (7R,13R)-14-((2-(3-(but-3-yn-1-yl)-3H-diazirin-3-yl)ethyl)amino)-13-hydroxy-14-oxotetradecan-7-yl (S)-1-(2-hydroxybenzoyl)-2,3-dihydro-1H-pyrrole-2-carboxylate]",,succinate dehydrogenase C-subunit (SdhC)
